Pooled drug test results. Numbers come from NIAID ChemDB, via PubChem.

All rows: whole-cell or culture tests; organism: Mycobacterium tuberculosis

MIC bound comes from a single tested concentration.

compound | strain | method | measure | dose | cell line | value
CC(CN(C)N=O)C1CCC2C3CC=C4CC(O)CCC4(C)C3CCC12C | H37Rv | BACTEC | MIC bound | - | - | >12.5 µg/mL
O=C(NN1C(=O)CSC1c1cccc([N+](=O)[O-])c1)c1cc(-c2ccc(Cl)cc2)n[nH]1 | - | broth dilution | MIC | - | - | 4 µg/mL
NC(=S)N=Nc1ccc(O)c2c(O)ccc(O)c12 | H37Rv | BACTEC | inhibition | 12.5 µg/mL | - | 56%
CC(=O)Oc1ccc(C2CC(=O)c3ccc(OC(C)=O)cc3O2)cc1 | H37Rv | BACTEC / radiometric | MIC | - | - | 100 µg/mL
Cc1ccc(-c2cc(-c3ccc(Cl)cc3)nc(/N=C3\C(=O)N(CN(C)C)c4ccc(Cl)cc43)n2)cc1 | H37Rv | BACTEC | inhibition | 6.25 µg/mL | - | 87%
CC1CCC2C(C1)c1c(c3ccccc3c3nc4ccccc4nc13)OC2(C)C | H37Rv | resazurin | MIC | - | - | 3.12 µg/mL
C/C([O-])=N/c1on[n+](-c2ccccc2)c1-c1ccccc1 | H37Rv | BACTEC | MIC | - | - | ≥12.5 µg/mL
O=C(/C=C/c1c[nH]c2ccccc12)c1ccccc1Cl | H37Rv | BACTEC / radiometric | MIC | - | - | >100 µg/mL
O=C1OCC(Cc2ccc3c(c2)OCO3)C1Cc1ccc2c(c1)OCO2 | H37Rv | resazurin | inhibition | 128 µg/mL | - | 80.8%
CCOC(=O)NN(C(=O)OCC)c1c(NNC(C)=O)nc(N)[nH]c1=O | H37Rv | BACTEC | MIC bound | - | - | >12.5 µg/mL
NNC(=O)c1ccncc1 | MTB23 (S) | - | MIC | - | - | 0.12 µg/mL
COC1/C=C\C=C(/C)C(=O)Nc2cc3nc4cc(Br)ccc4oc-3c(c2=O)CC(C)CC(OC)C(O)C(C)/C=C(\C)C1OC(N)=O | INH-r | - | MIC | - | - | 12.5 µg/mL
Cc1ccc(-n2c(SC(C)C(=O)Nc3c(C)n(C)n(-c4ccccc4)c3=O)nnc2-c2ccco2)cc1 | H37Rv | resazurin | inhibition | 6.25 µg/mL | - | inactive
O=C1CC(c2ccc(O)cc2)Oc2cc(O)ccc21 | H37Rv | BACTEC / radiometric | MIC | - | - | 25 µg/mL
O=C(N/N=C/c1ccc(O)cc1)c1cc(-c2ccc(Cl)cc2)n[nH]1 | H37Rv | broth dilution | MIC | - | - | 0.5 µg/mL
NC[C@@H]1O[C@H](O[C@H]2[C@@H](O)[C@H](O[C@@H]3[C@@H](O)[C@H](N)C[C@H](N)[C@H]3O[C@H]3O[C@H](CO)[C@@H](O)[C@H](O)[C@H]3N)O[C@@H]2CO)[C@H](N)[C@@H](O)[C@@H]1O | MTB12 (PZA-R) | - | MIC | - | - | 0.75 µg/mL
COc1ccc(/C=C/C(=O)c2ccc(OC)cc2OC)cc1 | H37Rv | BACTEC / radiometric | MIC | - | - | >100 µg/mL
Cc1c(NC(=O)C(C)Sc2nnc(-c3ccco3)n2-c2ccccc2)c(=O)n(-c2ccccc2)n1C | H37Rv | resazurin | MIC | - | - | >6.25 µg/mL
Cc1ccc(-c2cc(-c3ccc(Cl)cc3)nc(/N=C3\C(=O)N(CN4CCOCC4)c4ccccc43)n2)cc1 | H37Rv | BACTEC | EC50 | - | - | <6.25 µg/mL
Cn1c(=O)cc2c3c(c(N)ccc31)C(=O)c1ccccc1-2 | H37Rv | - | MIC | - | VERO | 3.13 µg/mL
Cc1ccc(-c2cc(-c3ccc(Cl)cc3)nc(/N=C3\C(=O)N(CN4CCCCC4)c4ccccc43)n2)cc1 | H37Rv | BACTEC | EC50 | - | - | <6.25 µg/mL
CCCc1ncc(C(N)=S)nc1SC | H37Rv | - | MIC | - | - | >12.5 µg/mL
CC1OC(n2ccc(NC(=O)c3ccc(NC(=O)C(C)(N)CO)cc3)nc2=O)CCC1OC1OC(C)C(N(C)C)C(O)C1O | CS-R | - | MIC | - | - | 0.8 µg/mL
COc1ccc(C)cc1NCc1cnc2nc(N)nc(N)c2c1C | H37Rv | - | MIC | - | - | 6.25 µg/mL
C=C1C(=O)O[C@@H]2C[C@@]3(C)CC(=O)C=C(C)[C@@H]3C[C@H]12 | H37Rv | BACTEC | inhibition | 12.5 µg/mL | - | 76%
CCC1CCC2CN(/N=C/c3c4c(O)c5c(O)c(C)c6c(c5c3O)C(=O)[C@@](C)(O/C=C/[C@H](OC)[C@@H](C)[C@@H](OC(C)=O)[C@H](C)[C@H](O)[C@H](C)[C@@H](O)[C@@H](C)/C=C/C=C(/C)C(=O)N4)O6)CCN2C1 | H37Rv | - | MIC | - | - | 0.03 µg/mL
CC(C)c1ccc(O)c(=O)cc1 | H37Rv | BACTEC | inhibition | 12.5 µg/mL | - | 0%
Cc1cc(N)c2ncccc2c1 | M 607 | - | MIC50 | - | - | >25 µg/mL
CCN(CC)CCN(C)c1ccc(CO)c2c1C(=O)c1ccccc1S2=O | H37Rv | BACTEC | MIC | - | VERO | 6.25 µg/mL
Oc1cc(CCc2ccccc2)ccc1Oc1ccc(Cl)cc1Cl | H37Rv | - | MIC | - | - | 52 µM
Cc1cc(=O)[nH]c2ccccc12 | H37Rv | - | MIC50 | - | - | >10 µg/mL
Cc1c(NC(=O)CSc2nnc(-c3ccco3)n2-c2ccc(F)cc2)c(=O)n(-c2ccccc2)n1C | H37Rv | resazurin | MIC | - | - | >6.25 µg/mL
COC(=O)C1(OC(=O)CCC(=O)O)C(=O)NC2=C1C(=O)c1ccccc1C2=O | H37Rv | resazurin | MIC bound | - | - | >6.25 µg/mL
O=C(c1cccc(Cl)c1)N1CCN(c2ccc(-c3ccccn3)cc2)CC1 | BioA overexpression strain | turbidity | MIC50 | - | - | >50 µM
CCCc1ncc(C(N)=O)nc1Sc1ccccc1 | H37Rv | - | MIC | - | - | >12.5 µg/mL
O=Cc1ccc2cccnc2c1O | H37Rv | - | MIC50 | - | - | >10 µg/mL
COc1cccc2ccc(N3CCC(c4nc(-c5ccc(N6CCCCC6)nc5)no4)CC3)nc12 | H37Rv | resazurin | MIC | - | - | <7.8 µM
CCSc1nc(C(N)=S)cnc1CC(C)C | H37Rv | - | MIC | - | - | >12.5 µg/mL
CCNc1ncnc2sc(SCc3ccccc3)nc12 | H37Rv | BACTEC | MIC bound | - | - | >12.5 µg/mL
COc1cccc2ccc(N3CCC(c4nc(-c5cccnc5)no4)CC3)nc12 | H37Rv | resazurin | MIC | - | - | 15.6–31.5 µg/mL
CC1(C)Oc2c(c3nc4ccccc4nc3c3ccccc23)C=C1Br | ATCC 35338 | resazurin | MIC | - | - | 6.25 µg/mL
NNOC(=O)c1ccc2cccnc2c1O | H37Rv | - | MIC50 | - | - | >10 µg/mL
Nc1ccc2c(O)c(N=Nc3ccc(N=Nc4ccc(S(=O)(=O)[O-])cc4)cc3)c(S(=O)(=O)[O-])cc2c1N=Nc1ccc(N=Nc2ccc(S(=O)(=O)[O-])cc2)cc1.[Na+].[Na+].[Na+] | H37Rv | BACTEC | inhibition | 12.5 µg/mL | - | 0%
CC(C)CCC[C@@H](C)CCC[C@@H](C)CCCC1(C)OC1CO | H37Rv | - | MIC | - | - | 8 µg/mL
COc1cc(OC)cc(-c2noc(C3CCN(c4ccc5cccc(OC)c5n4)CC3)n2)c1 | H37Rv | resazurin | MIC | - | - | 7.8–15.6 µM
COc1ccc(/C=C/c2cc(OC)cc(=O)o2)cc1 | H37Rv | BACTEC | MIC | - | - | ≥12.5 µg/mL
Cc1ccc2cccnc2c1O | H37Rv | - | MIC50 | - | - | 0.5–1 µg/mL
Oc1cc(CC2CCCCC2)ccc1Oc1ccc(Cl)cc1Cl | Clinical isolate 12081 | - | MIC | - | - | 110 µM
O=C(Oc1ccc(C2CC(=O)c3ccc(OC(=O)c4ccccc4)cc3O2)cc1)c1ccccc1 | H37Rv | BACTEC / radiometric | MIC | - | - | 25 µg/mL
CC1(C)CCC2=C(O1)c1ccccc1C(=O)C2=O | H37Rv | resazurin | MIC | - | - | 1.56 µg/mL
COc1ccc2nc(N3CCC(c4nc(-c5cccnc5)no4)CC3)ccc2c1 | H37Rv | resazurin | MIC | - | - | <7.8 µM
Cc1c(NC(=O)CSc2nnc(-c3ccco3)n2C2CCCCC2)c(=O)n(-c2ccccc2)n1C | H37Rv | resazurin | inhibition | 6.25 µg/mL | - | inactive
CSc1nc(C(N)=O)cnc1C(C)(C)C | H37Rv | - | inhibition | 12.5 µg/mL | - | <90%
CN(C)c1ccc(/C=N/NC(=O)c2cccnc2)cc1 | H37Rv | BACTEC | inhibition | 12.5 µg/mL | - | 12%
COc1cc(OC)c(C(=O)C(Br)C(Br)c2ccccc2)cc1Br | H37Rv | BACTEC / radiometric | MIC | - | - | 25 µg/mL
O=c1n(CC2CO2)c(=O)n(CC2CO2)c(=O)n1CC1CO1 | H37Rv | BACTEC | inhibition | 12.5 µg/mL | - | -25%
COc1ccc(C2OCC3C(c4ccc5c(c4)OCO5)OCC23)cc1OC | H37Rv | resazurin | inhibition | 128 µg/mL | - | 98.6%
Oc1cccc2cccnc12 | M 607 | - | MIC50 | - | - | 5–10 µg/mL
Cc1c(NC(=O)CSc2nnc(-c3ccco3)n2-c2ccc(Br)cc2)c(=O)n(-c2ccccc2)n1C | H37Rv | resazurin | inhibition | 6.25 µg/mL | - | 3%
CC(=O)c1ccc(N2CCN(C(=O)c3cccc(Cl)c3)CC2)s1 | BioA overexpression strain | turbidity | MIC90 | - | - | >50 µM
Cc1ccc(-c2cc(-c3ccc(Cl)cc3)nc(/N=C3\C(=O)Nc4ccc(Cl)cc43)n2)cc1 | H37Rv | BACTEC | EC50 | - | - | <6.25 µg/mL
O=C1CCCCCN1C(=O)c1ccccc1 | H37Rv | BACTEC | inhibition | 12.5 µg/mL | - | 12%
C/C(=C\CO)CCC[C@H](C)CCC[C@H](C)CCCC(C)C | H37Rv | - | inhibition | 100 µg/mL | - | 92%
CCCc1ncc(C(N)=O)nc1SCC | H37Rv | - | inhibition | 12.5 µg/mL | - | <90%
O=C(NN1C(=O)[C@H](Cl)[C@H]1c1cccc([N+](=O)[O-])c1)c1cc(-c2ccc(Cl)cc2)n[nH]1 | H37Rv | broth dilution | MIC | - | - | 1.9 µg/mL
c1cc2c(cc1C1OCC3C(c4ccc5c(c4)OCO5)OCC13)OCO2 | H37Rv | resazurin | inhibition | 128 µg/mL | - | 60%
CC(=O)c1ccc(N2CCN(C(=O)c3ccc(Cl)c(Cl)c3)CC2)cc1 | BioA underexpression strain | turbidity | MIC90 | - | - | 6 µM
O/N=C1\CC(c2ccc(O)cc2)Oc2cc(O)ccc21 | H37Rv | BACTEC / radiometric | MIC | - | - | 25 µg/mL
Cc1ccc(-c2cc(-c3ccc(Cl)cc3)nc(/N=C3\C(=O)N(CN4CCOCC4)c4ccc(Br)cc43)n2)cc1 | H37Rv | BACTEC | inhibition | 6.25 µg/mL | - | 91%
C/C(=N\NC(=S)NNC(=S)N(C)c1ccccc1)c1ccccn1 | H37Rv | BACTEC | inhibition | 12.5 µg/mL | - | 21%
Cc1cc([N+](=O)[O-])c2ncccc2c1 | H37Rv | - | MIC50 | - | - | >10 µg/mL
O=C1c2nc[nH]c2C(=O)c2c1nc[nH]c2=O | H37Rv | BACTEC | inhibition | 12.5 µg/mL | - | 0%
O=C(c1cccc(Cl)c1)N1CCN(c2ccc(-c3ccno3)cc2)CC1 | BioA underexpression strain | turbidity | MIC90 | - | - | 1.3 µM
COc1cccc2ccc(N3CCC(c4nc(-c5ccc(OC(F)(F)F)cc5)no4)CC3)nc12 | H37Rv | resazurin | MIC | - | - | 50–100 µM
CC(=O)c1ccc(-c2cn(Cc3cccc(Cl)c3)nn2)s1 | Wild type without biotin | turbidity | MIC50 | - | - | >50 µM
CCCCc1ncc(C(N)=O)nc1SCCC | H37Rv | - | inhibition | 12.5 µg/mL | - | 62%
Cc1c(NC(=O)C(C)Sc2nnc(-c3ccco3)n2-c2ccc(Cl)cc2)c(=O)n(-c2ccccc2)n1C | H37Rv | resazurin | MIC | - | - | >6.25 µg/mL
O=C(O)Cc1ccc(O)c2ncccc12 | M 607 | - | MIC50 | - | - | 0.5 µg/mL
Cc1ccc(-c2cc(-c3ccc(Cl)cc3)nc(/N=C3\C(=O)Nc4ccc(Br)cc43)n2)cc1 | H37Rv | BACTEC | inhibition | 6.25 µg/mL | - | 92%
COc1cc2cc(C(=O)N3CC(CCl)c4ccc(O)cc43)[nH]c2c(OC)c1OC | H37Rv | BACTEC | inhibition | 6.25 µg/mL | - | 14%
COc1cccc2ccc(N3CCC(c4nc(-c5cccc(C(F)(F)F)c5)no4)CC3)nc12 | H37Rv | resazurin | MIC | - | - | 15.6–31.5 µM
COc1ccc(C(=O)/C=C/c2ccc(O)cc2)c(OC)c1 | H37Rv | BACTEC / radiometric | MIC | - | - | 100 µg/mL
O=C(O)CCCc1ccc(O)c2ncccc12 | M 607 | - | MIC50 | - | - | 1 µg/mL
COc1cccc2ccc(N3CCC(c4nc(-c5ccc(C(F)(F)F)nc5)no4)CC3)nc12 | H37Rv | resazurin | MIC | - | - | <7.8 µM

A second listing of 5 rows from above:

compound,strain,method,measure,dose,cell line,value
O=C(c1cccc(Cl)c1)N1CCN(c2ccc(-c3ccno3)cc2)CC1,BioA underexpression strain,turbidity,MIC90,-,-,1.3 µM
Cc1cc([N+](=O)[O-])c2ncccc2c1,H37Rv,-,MIC50,-,-,>10 µg/mL
Cc1cc(=O)[nH]c2ccccc12,H37Rv,-,MIC50,-,-,>10 µg/mL
CC(C)CCC[C@@H](C)CCC[C@@H](C)CCCC1(C)OC1CO,H37Rv,-,MIC,-,-,8 µg/mL
Oc1cc(CC2CCCCC2)ccc1Oc1ccc(Cl)cc1Cl,Clinical isolate 12081,-,MIC,-,-,110 µM

Conditions beyond the fields shown may differ between rows. Two numbers with a dash give a range or band. For "inactive" no cut-off is given. Inhibition is in % at the dose shown (toxicity tests: loss of growth or viability). ECn is the concentration giving n% inhibition of infection, replication or growth. An empty or dashed field is not shown. MIC50, MIC90 and the like: level of inhibition, or share of isolates inhibited.